Measurements from “University of Dundee, Small-Polar-MMV Screening Library” (2021), ChEMBL document CHEMBL3988442.

The filed quantity is “Percent Effect” (%). The record does not define 0% and 100%; most values in the screen are far below 50% and negative numbers occur (in some assays of this library far below -100). The entries come from a sample that favours strong results. A dash means the value is not listed here; it may have been measured.

A: 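Phenotypic screen: M. tuberculosis growth, glucose 7H9 medium, 3 days; the read-out is not stated. Tested at 500 µM. The record gives no direction; compounds that gave an IC50 in retests scored well above the rest, so higher reads as more growth inhibition. Size under these conditions: about 18,000 compounds, about 1,400 of them at 50% or above in at least one test.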
B: 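Phenotypic screen: M. tuberculosis growth, cholesterol and DPPC medium, 4 days; the read-out is not stated. Compounds at 500 µM. Direction is inferred from retests: higher values go with more growth inhibition. Of about 18,000 compounds tested this way, about 900 (5%) reached 50% or more in at least one test.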

structure	A	B
Cc1ccccc1CC(=O)N1CCNCC1	17.44	-
Cc1ccc(C)c(S(N)(=O)=O)c1	18.97	-
CS(=O)(=O)c1ccc(NC(=O)c2cnsn2)cc1	-	10.52
CC(C)(C)OC(=O)N1CCC(n2cc(N)cn2)CC1	56.11	67.52
CC(CN1CCOCC1)C(=O)NCCn1cc(Cl)cn1 (centres undefined)	-15.29	-
CC(NC(=O)CCNC(=O)c1ccco1)c1cccs1 (centres undefined)	52.24	-
NC(=O)CO[C@H]1CCOC[C@H]1NC(=O)c1ccc(Cl)o1	-	-14.75
CN(C)C(=O)CNC(=O)C(C)(C)Oc1ccc(Cl)cc1	17.98	-
NS(=O)(=O)CC1CCNCC1	-6.367	-
Cc1nccn1CCCN1CCC2(CCO2)CC1	-8.426	-
O=C(CCc1ccc(Br)cc1F)NC1CCS(=O)(=O)C1 (centres undefined)	-3.462	-17.45
CCCC(=O)NC1CCCNC1 (centres undefined)	-0.226	-
CN(CCCN)C(=O)Cc1ccccc1Br	3.439	-
CCOc1ccc2[nH]c(C(C)O)nc2c1 (centres undefined)	-4.087	-
C[C@@H]1CNC(=O)C[C@H](C)O1	-10.81	-
Nc1nc2ccc(C(=O)N3CCNCC3)cc2o1	8.672	-
CN(CC(F)(F)F)C(=O)CN1CCCC(CCO)C1 (centres undefined)	9.9	-
COCC(=O)N(C)C1CCCCC1	-2.305	-
CNc1snc(C)c1C(=O)NCc1cccnc1	22.86	-
COc1ccc(CC(=O)Nc2cnn(C)c2)cc1F	13.6	-
CCCc1cc(C(N)=O)c(NC(=O)c2ccnn2C)s1	-	22.62
N#CC1(C(=O)NCc2ccccc2F)CC1	-	61.86
Cc1ccc(C(C)NC(=O)CN2CCOCC2)nc1 (centres undefined)	9	-
CC(C)Oc1cc(Br)cc(C(=O)NCCC(N)=O)c1	37.26	-
CCCn1ncc(CN2CCC(O)(CO)C2)c1C (centres undefined)	2.721	-
Cc1nnc(SCCN)s1	50.79	-
c1ccc(N2CCN3CCCCC3C2)nc1 (centres undefined)	26.4	-
Cc1cnc(CCNC(=O)NCC(O)C2CC2)s1 (centres undefined)	-7.39	-
CC(CN)S(N)(=O)=O (centres undefined)	3.418	-
COc1ccc(C(C)=O)cc1CN1CCC[C@H]1CO	28.87	-
CCCNc1cc(-n2cccn2)ncn1	72.31	67.07
COCCOc1ccc(C#N)cn1	-	3.295
Cn1cc(CCC(=O)N2C[C@H](C3CC3)[C@@H](N)C2)cn1	-8.918	-
Cc1cccc(CNC(=O)C2=COCCO2)c1Br	-	-21.79
c1cc(C2CCCCN2)n[nH]1 (centres undefined)	-	-6.529
FC(F)(F)CC1CNCCO1 (centres undefined)	11.57	-
CC(C)NC(=O)c1nc(-c2ccc(F)cc2)no1	6.868	-
COCC(C)(CCO)NCC(=O)Nc1ccccc1I (centres undefined)	60.8	-
N#Cc1ccccc1NC(=O)CCN1CCCC(O)C1 (centres undefined)	-5.713	-
Nc1ncn(Cc2ccccn2)n1	-0.2795	-0.2933
O=C(CN1CCOC(c2ccccc2)C1)NC1CC1 (centres undefined)	39.5	-
COCCNC(=O)CN(C)c1ccc(Br)cc1C#N	-2.626	-
CC(C)(C(=O)NCc1cccnc1)c1ccccc1	23.51	-
c1cc2c(cc1CN1CCNCC1)OCCO2	-	10.5
Cc1cc(S(=O)(=O)N2CCCC2CN)sc1C (centres undefined)	53.38	22.88
CC(C)N(CC(F)F)C(=O)C(N)c1ccccc1 (centres undefined)	7.183	-
C[C@H](N)c1cccs1	11.15	-
CC(Nc1ccc(C#N)cn1)c1ccc2c(c1)OCO2 (centres undefined)	76.86	78.7
CS(=O)(=O)c1ccc(NC(=O)CN)cc1	15.33	3.819
Cc1cc(C(=O)N2C[C@H]3CC[C@@H](C2)[C@H]3O)c(C)o1	9.777	-
COc1ccc(CCN)c(Cl)c1OC	54.79	16.2
CNC(=O)CCC(C)(C)NC(=O)c1cnc(C)c(C)c1	-4.996	-
COCCn1nc(-c2nc(CC(C)C)no2)ccc1=O	-	35.95
c1cnn(CCNCCn2cccn2)c1	-0.6894	-
c1cn(C2CCNC2)nn1 (centres undefined)	6.255	1.959
CCCN(CCO)CC(=O)N1CCCC(C)C1 (centres undefined)	-	73.21
Cc1cccc(NC(=O)c2cnccn2)n1	-	1.165

Some entries from above, unchanged:

structure,A,B
Cc1cccc(CNC(=O)C2=COCCO2)c1Br,-,-21.79
CN(CCCN)C(=O)Cc1ccccc1Br,3.439,-
CCCN(CCO)CC(=O)N1CCCC(C)C1 (centres undefined),-,73.21
Cn1cc(CCC(=O)N2C[C@H](C3CC3)[C@@H](N)C2)cn1,-8.918,-
CS(=O)(=O)c1ccc(NC(=O)c2cnsn2)cc1,-,10.52
c1cn(C2CCNC2)nn1 (centres undefined),6.255,1.959
C[C@@H]1CNC(=O)C[C@H](C)O1,-10.81,-